Data from publication PMC13483431, “Structure and mechanism of the HSV-1 origin-binding protein UL9” (Journal of Virology, 2025).
Construct, isoform or probe ends are uncertain for at least one entry. At least one verdict rests on a figure or table, not on a statement of the authors. Tags and fusion partners may be left off the protein sequences shown.

Target: T1, UL9CTD wild type (HSV-1) (UniProt P10193)
T1 sequence (looked up): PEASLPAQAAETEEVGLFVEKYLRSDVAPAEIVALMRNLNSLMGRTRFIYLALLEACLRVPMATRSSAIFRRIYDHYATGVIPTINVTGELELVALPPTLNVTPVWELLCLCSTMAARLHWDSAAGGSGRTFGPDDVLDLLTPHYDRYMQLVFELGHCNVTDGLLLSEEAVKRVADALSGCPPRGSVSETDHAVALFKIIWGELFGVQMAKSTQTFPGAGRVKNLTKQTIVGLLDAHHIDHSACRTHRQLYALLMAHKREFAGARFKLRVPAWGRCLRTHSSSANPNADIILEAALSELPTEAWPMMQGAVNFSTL
Assay: EMSA
Conditions: EMSA: 50 mM Tris pH 8.0, 50 mM NaCl, 1 mM DTT, 40 nM FAM-dsDNA, 0.5-3.5 uM protein, 4 C; recombinant protein; residues 536-851; protein details: N-terminal 8xHis

“GCGTTCGCACTTCGT (double strand) [15-bp oriS Box I dsDNA]”: binds.
